The test system of this assay is SARS-CoV-2. The assay is described as follows: Inhibition of cell viability relative to arbidol control (inhibition index > 1 indicates higher activity) measured by fluorescence (OD590nm) in Vero E6 cells infected with SARS-CoV-2 (strain BavPat1) at MOI 0.002 after 72hrs. It is filed as functional. To be noted: Chlorocebus sabaeus; Vero C1008.

This note sets out measurements from ChEMBL document CHEMBL4303097, “In vitro screening of a FDA approved chemical library reveals potential inhibitors of SARS-CoV-2 replication” (2020).

COLISTIN SULFATE: the Inhibition index turned out to be 0.0365.
